Pooled drug test results. Numbers come from NIAID ChemDB, via PubChem.

Common to all: host cell toxicity; measure: CC50

Rows are shuffled and stem from different studies.

{"SMILES": "NC(=S)Nc1cccc(OCCCOc2ccccc2-c2ccccc2)c1", "cell line": "Ava5-EG(delta4AB)SEAP", "method": "MTS", "value": ">1 µM"}
{"SMILES": "CCOC(=O)CCNC(=O)NCCc1ccc2c(n1)NCCC2", "cell line": "PBMC", "value": "50 µM"}
{"SMILES": "CC(C1CCN(c2cc(=O)n(O)c3ncccc23)CC1)N1CCOCC1", "cell line": "HeLa", "value": "<100 µM"}
{"SMILES": "CCOC(=O)CCCCCOc1cccc(CN(C(=O)c2ccc(-c3cn(S(=O)(=O)c4ccccc4)c4ccccc34)cc2)C(C)C)c1", "cell line": "RAJI", "value": ">20 µM"}
{"SMILES": "O=S(=O)(NCCc1ccc2c(n1)NCCC2)c1ccc(Cl)c(Cl)c1", "cell line": "PBMC", "value": "50 µM"}
{"SMILES": "CCOC(=O)C1=C(CN2CC(F)(F)[C@H]3[C@@H]2CCN3C[C@@](C)(O)C(=O)O)NC(c2nccs2)=N[C@H]1c1cccc(F)c1F", "cell line": "HepG2.2.15", "method": "WST / absorbance", "value": ">50 µM"}
{"SMILES": "CC(C)N(Cc1cccc(OCCCCCC(=O)OC(=O)O)c1)C(=O)c1ccc(-c2cccc(Oc3ccccc3)c2)cc1", "cell line": "HEK 293", "value": "<13.5 µM"}
{"SMILES": "COc1cccc(OC)c1NC(=O)NCCc1ccc2c(n1)NCCC2", "cell line": "PBMC", "value": "3.03 µM"}
{"SMILES": "Cc1cccc(-c2ccccc2OCCCCCOc2cccc(NC(N)=S)c2)c1", "cell line": "Ava5-EG(delta4AB)SEAP", "method": "MTS", "value": ">1 µM"}
{"SMILES": "COc1cccc(CNC(=O)NCCc2ccc3c(n2)NCCC3)c1", "cell line": "PBMC", "value": "50 µM"}
{"SMILES": "CCOC(=O)C1=C(CN2CC(F)(F)[C@@H]3[C@H]2CON3C[C@H](O)[C@H](CC)C(=O)O)NC(c2nccs2)=N[C@H]1c1cccc(F)c1C", "cell line": "HepG2.2.15", "method": "WST / absorbance", "value": ">100 µM"}
{"SMILES": "CCCN(Cc1ccccc1OCC(=O)OCC)C(=O)c1ccc(-c2ccc3c(c2)OCO3)cc1", "cell line": "HEK 293", "value": ">20 µM"}
{"SMILES": "O=c1cc(NCc2cccc(F)c2)c2cccnc2n1O", "cell line": "HeLa", "value": "<100 µM"}
{"SMILES": "NC(=S)Nc1cccc(OCCCCCOc2ccc(N3CCSCC3)cc2)c1", "cell line": "Ava5-EG(delta4AB)SEAP", "method": "MTS", "value": ">1 µM"}
{"SMILES": "COC(=O)C1=C(CN2CC(F)(F)[C@@H]3[C@H]2CON3CC(F)(F)C(C)(C)C(=O)O)NC(c2nccs2)=N[C@H]1c1ccc(F)c(F)c1C", "cell line": "HepG2.2.15", "method": "WST / absorbance", "value": ">12.5 µM"}
{"SMILES": "NC(=S)Nc1cccc(OCCCCCOc2ccccc2-c2cc(F)cc(F)c2)c1", "cell line": "Ava5-EG(delta4AB)SEAP", "method": "MTS", "value": ">1 µM"}
{"SMILES": "CCOC(=O)C1=C(CN2CC(F)(F)[C@@H]3[C@H]2CON3C[C@H](O)C(C)(C)C(=O)O)NC(c2nccs2)=N[C@H]1c1ccc(F)c(F)c1F", "cell line": "HepG2.2.15", "method": "WST / absorbance", "value": ">100 µM"}
{"SMILES": "O=c1cc(NC2CCN(Cc3ccccc3)C2)c2cccnc2n1O", "cell line": "HeLa", "value": "<100 µM"}
{"SMILES": "S=C(Nc1cccc(OCCCCCOc2ccc(-c3ccccc3)cc2)c1)N1CCOCC1", "cell line": "Ava5-EG(delta4AB)SEAP", "method": "MTS", "value": ">1 µM"}
{"SMILES": "C=CCCCC(=O)NCC(c1ccc2c(c1)OCO2)C1OCCO1", "cell line": "HepG2", "value": ">20 µM"}
{"SMILES": "O=c1cc(-c2cccc(CN3CCN(Cc4ccccc4)CC3)c2)c2cccnc2n1O", "cell line": "HeLa", "value": "<100 µM"}
{"SMILES": "O=C(NCCc1ccccn1)NCc1ccc(Cl)c(Cl)c1", "cell line": "PBMC", "value": "50 µM"}
{"SMILES": "NC(=S)Nc1cccc(OCCCCCOc2cccc(C(=O)c3ccccc3)c2)c1", "cell line": "Ava5-EG(delta4AB)SEAP", "method": "MTS", "value": ">1 µM"}

Repeating the final 2 entries:

SMILES | cell line | method | value
O=C(NCCc1ccccn1)NCc1ccc(Cl)c(Cl)c1 | PBMC |  | 50 µM
NC(=S)Nc1cccc(OCCCCCOc2cccc(C(=O)c3ccccc3)c2)c1 | Ava5-EG(delta4AB)SEAP | MTS | >1 µM

CCn is the concentration with n% toxicity to the cells. An empty or dashed field is not shown.